Patent US20250382354A1 (INSTITUTE FOR RESEARCH IN BIOMEDICINE IRB, published 2025)

Key:
Assay in all cases: protein ELISA
SARS-CoV-2 SD1-RBD Beta = biological target: T1, SARS-CoV-2 SD1-RBD Beta (SARS-CoV-2 Beta)
T1 construct: domain: SD1-RBD

[1] = biological target: T2, SARS-CoV-2 SD1-RBD Omicron BA.5.9 (SARS-CoV-2 Omicron BA.5.9)
T2 construct: domain: SD1-RBD

[2] = biological target: T3, SARS-CoV-2 SD1-RBD Omicron BA.4.7 (SARS-CoV-2 Omicron BA.4.7)
T3 construct: domain: SD1-RBD

SARS-CoV-2 SD1-RBD Delta = biological target: T4, SARS-CoV-2 SD1-RBD Delta (SARS-CoV-2 Delta)
T4 construct: domain: SD1-RBD

[3] = biological target: T5, SARS-CoV-2 S Omicron BA.1 (ectodomain) (SARS-CoV-2 Omicron BA.1)
T5 construct: extracellular domain

[4] = biological target: T6, SARS-CoV-2 S Omicron BA.4/BA.5 (ectodomain) (SARS-CoV-2 Omicron BA.4/BA.5)
T6 construct: extracellular domain

[5] = biological target: T7, SARS-CoV-2 S Delta (ectodomain) (SARS-CoV-2 Delta)
T7 construct: extracellular domain

SARS-CoV-2 SD1-RBD Gamma = biological target: T8, SARS-CoV-2 SD1-RBD Gamma (SARS-CoV-2 Gamma)
T8 construct: domain: SD1-RBD

[6] = biological target: T9, SARS-CoV-2 SD1-RBD Omicron BA.2.75.2 (SARS-CoV-2 Omicron BA.2.75.2)
T9 construct: domain: SD1-RBD

[7] = biological target: T10, SARS-CoV-2 SD1-RBD Omicron BA.4.6 (SARS-CoV-2 Omicron BA.4.6)
T10 construct: domain: SD1-RBD

[8] = biological target: T11, SARS-CoV-2 SD1-RBD Omicron BA.2 (SARS-CoV-2 Omicron BA.2)
T11 construct: domain: SD1-RBD

| Binder | EC50 (SARS-CoV-2 SD1-RBD Beta) [µg/mL] | EC50 [1] [µg/mL] | EC50 [2] [µg/mL] | EC50 (SARS-CoV-2 SD1-RBD Delta) [µg/mL] | EC50 [3] [µg/mL] | EC50 [4] [µg/mL] | EC50 [5] [µg/mL] | EC50 (SARS-CoV-2 SD1-RBD Gamma) [µg/mL] | EC50 [6] [µg/mL] | EC50 [7] [µg/mL] | EC50 [8] [µg/mL] |
| --- | --- | --- | --- | --- | --- | --- | --- | --- | --- | --- | --- |
| sd1.034 (antibody, V domains shown) VH: EVQLVESGGGVVQPGRSLRLSCAASGFSFSNYGMHWVRQAPGKGLEWVAVISYDGSHKSFADSVKGRFTISRDNSKNTLNLQMNSLRREDTAVYYCATDQGGSLGYWGQGTLVTVSS VL: QSALTQPASVSGSPGQSITISCTGTSGDVGGYNYVSWYQHHPGKAPKLMIYDVSNRPSGVSNRFSGSKSGNTASLTISGLQAEDEADYYCSSYTSTSTSWVFGGGTKLTVL | 0.0191 | 0.0298 | 0.0335 | 0.0112 | 0.0683 | 0.0416 | 0.0232 | 0.0206 | 0.0344 |  |  |
| sd1.039 (antibody, V domains shown) VH: EVQLVQSGAEVKKPGESLKISCKASGYSFPTYWIGWVRQMPGKGLEWMGIIYPGDSDTRYSPSFQGQVTISADKSISTAYLQWSSLKASDTAIYYCARYGDSHIDSWGQGTLVTVSS VL: QSVLTQPRSASASLGASVTLNCTLSSGYSKYKVEWYQQRPGKGPRFLMRVGAGGIVGSKGDGIPDRFSVLGSGLNRYLIIKNIQQEDESDYHCGADHGSGSNFAYVVFGGGTKLTVL | 0.0236 | 0.0305 | 0.0391 | 0.0186 | 0.0597 | 0.0323 | 0.0423 | 0.0235 | 0.0273 | 0.0372 | 0.0224 |
| sd1.040 (antibody, V domains shown) VH: QVQLVQSGAEVKKPGASVKVSCKASGYTFTSFYIHWVRQAPGQGLEWMGIIDPSGGSTSYPQKFQGRVTMTRDTSTSTVYMDLSSLRSEDTAVYYCTRDGSAGDNSWFDPWGQGTLVTVSS VL: DIVMTQSPDSLAVSLGERATINCKSSRNVLYSSNNKNYLAWYQQKPGQPPKLLIYWASARESGVPDRFSGSGSGTDFTLTISSLQAEDVAVYYCQQYYNTPYTFGQGTKLEIK | 0.0203 | 0.0273 | 0.0357 | 0.0158 | 0.0316 | 0.0234 | 0.0178 | 0.0191 | 0.0272 | 0.038 | 0.0153 |
| sd1.100 (antibody, V domains shown) VH: QVQLQESGPGLVKPSQTLSLTCSVSGDSITSGNYYWSWIRQHPGKGLEWIGNIFHTGNTYYNPSLKSRVTISIDTSKNQFSLKLSSVTAADTALYYCARDHKRLEGDWFDPWGQGSLVTVSS VL: QSVLTQPPSASGTPGQRVTISCSGSSSNIGSNTVNWYLQLPGTAPKLLIYSNNLRPSGVPDRFSGSKSGTSASLAISGLQSGDEADYFCAAFDDSLSGPVFGGGTKLTVL |  | 0.21 | 0.186 | 2.4 | 1.84 | 0.309 | 0.309 |  | 0.19 | 0.199 | 0.0739 |
| sd1.108 (antibody, V domains shown) VH: QVQLVQSGAEVKKPGASVKVSCKASGYTFTSYYIHWVRQTPGQGLEWMGIINPRGGSTSYPQKFQGRVSMTRDTSTSTVFMELSSLRSDDTAVYYCAREHREDTAMDNQPSDSWGQGTLVTVSS VL: DIVMTQSPDSLSVSLGERATINCKSSRSVFYSSNNKSYLAWYQQKPGQPPKLLIYWASTRESGVRDRFSGSGSGTDFTLTISSLQAEDVAVYYCQQYYNTPYTFGQGTKLEIK | 0.0265 | 0.0287 | 0.0365 | 0.0241 | 0.0382 | 0.0217 | 0.0155 | 0.0183 | 0.0282 | 0.0308 | 0.0201 |
| sd1.127 (antibody, V domains shown) VH: EVQLVESGGALVKPGGSLTLSCVASGFTFSHAWMTWVRQAPGKGLEWVGRIKTKTEGGTIDYAAPLRGRFTISRDDSKNTLYLRMNSLKIEDTAKYYCTTHSSPDYWGQGTLVTVSS VL: DIQMTQSPSSLSASIGDRVTITCRASQGIGNSLLWYQQKRGKVPKLLIYAASTLQSGVPSRFSGSGSGTDFTLTISSLQPEDVATYYCQRYNSAPLTFGGGTKVEIK | 0.0103 | 0.0102 | 0.0129 | 0.0124 | 0.016 | 0.0107 | 0.0127 | 0.00935 | 0.0104 | 0.0131 | 0.00961 |
| sd1.150 (antibody, V domains shown) V domain 1: EVQLVESGGGVVQPGRSLRLSCAASGFTFSSHGMHWVRQAPGRGLEWVAVISFDGRNKFYVDSVKGRFTISRDNSKNTLYLHMNSLRAADTAVYYCAKDHDPDGSGSYFSNWFDAWGQGTLVTVSS V domain 2: SYELTQPPSVSVSPGQTASITCSGDKLGDKYAYWYRQKPGQSPVVVIYQDNKRPSGIPERFSGSNSGNTATLTISGTQAMDEADYYCQAWDTYSGVFGTGTQVTVL | 0.163 | 0.945 | 1.3 | 0.0522 | 0.055 | 0.0685 | 0.0255 | 0.0844 | 1.07 | 0.676 | 0.234 |
| sd1.151 (antibody, V domains shown) VH: EVQLVESGGGLVKPGGSLRLSCAVSGFTFSNAWMTWVRQAPGKGLEWVGRIKTKPEGGTTDYATPVKGRFTISRDDSIDTLYLQMNSLKTEDTAVYYCSTFSSPDHWGQGTLVTVSS VL: DIVMTQSPDSLAVSLGERATINCKSSQSVFHSSNNKNYLIWYQHKPGQPPKLLISWASTRESGVPDRFSGSGSGTDFTLTISSLQAEDVAVYYCHQYYSTPFTFGPGTKVDIK | 0.0235 | 0.0188 | 0.0227 | 0.0323 | 0.0372 | 0.0199 | 0.0202 | 0.0198 | 0.0168 | 0.0242 | 0.0263 |
| rbd.031 (antibody, V domains shown) VH: EVQLVESGGGVVQPGRSLRLSCAASGFTFKTYGMHWVRQAPGKGLEWVAVISYEGSNEYYAESVKGRFTISRDNSKNTLYLHMNSLRAEDTAVYYCAKGEYYYHSSTYYYLDYWGRGTLVTVSS VL: DIQMTQSPSTLSASVGDRVTITCRASQSISSWLAWYQQKPGKAPKVLIYDASSLQSGVPLRFSGSGSGTEFTLTISSLQPDDFATYYCQQYDTYWTFGQGTKVEIK | 0.0209 | 0.0276 | 0.0316 | 0.0149 | 2.01 | 0.058 | 0.0208 | 0.0174 | 0.0522 | 0.033 | 0.0143 |
| rbd.045 (antibody, V domains shown) VH: QVQLQESGPGLVKPSETLSLTCTVSGGAFRSFFWTWIRQPPGKGLEWIGNIYYSGSTNYNPSLKSRVTISQDMSENQFSLKLSSVTAADTAVYYCARSQWLRGNFDHWGQGILVTVSS VL: NFMLTQPHSVSESPGKTVTISCTATSGYIASNYVQWYQQRPGSAPTTVIYEDNQRPSGVPDRFSGSIDSSSNSASLTISGLKPEDEADYYCQSFDTAYAVFGGGTQLTVL | 0.0323 | 0.35 | 0.407 | 0.0232 |  | 0.159 | 0.0314 | 0.0258 |  | 0.383 | 0.0384 |
| rbd.046 (antibody, V domains shown) VH: EVQLVESGGGVVQPGRSLRLSCAASGFTFSHYGMHWVRQAPGKGLEWVAVISYDGSNKYYADSVKGRFTISRDNSKSTLYLQMNSLRAEDTAVYYCAKGEWYYDIFTGYYPYWGQGTLVTVSS VL: not shown | 0.0398 | 0.105 | 0.144 | 0.0235 | 1.5 | 0.577 | 0.058 | 0.023 | 0.377 | 0.116 | 0.0625 |
